The term Kd denotes the concentration at which binding is half-saturated.

Here are results for 3 substances from patent publication US20130022598A1.

Assay [1] has as its target EGFRwt expressed on cells (NR6W transfectant; A431 cells) (UniProt P00533). The experiment in a line: cell-based or functional assay.
Assay [2] concerns the target recombinant EGFRvIII extracellular domain protein (UniProt P00533). The experiment in a line: SPR (Biacore 3000), EGFRvIII ECD immobilised on a CM5 chip, IT at 25 to 200 nM. (In general: In SPR one partner is held on a chip, and binding of the other changes the refractive index at the surface.)
For assay [3], the target named is EGFRvIII expressed on cells (NR6M transfectant; glioblastoma cells) (UniProt P00533). The experiment in a line: cell-based or functional assay.

“D2C7-(scdsFv)-PE38 KDEL immunotoxin (from UniProt P11439 278-638) (scFv)” gave an IC50 ng/ml, cytotoxicity (50% inhibition of protein synthesis) on A431 cells in assay [1] of 0.17 ng/mL. Moreover, in assay [2], the Ka worked out at 7.8e+08 M⁻¹ and the Kd was 1.3 nM.

With “D2C7-PE38 immunotoxin (parental) (from UniProt P11439 278-638) (scFv)”, the IC50 ng/ml, cytotoxicity (50% inhibition of protein synthesis) on A431 cells in assay [1] stood at 1 ng/mL.

Substance “MR1-1-(scdsFv)-PE38 KDEL immunotoxin (from UniProt P11439 278-638) (scFv)” came in with an IC50 ng/ml, cytotoxicity (50% inhibition of protein synthesis) on A431 cells in assay [1] of 8 ng/mL. Further, in assay [3], the IC50 ng/ml, cytotoxicity (50% inhibition of protein synthesis) on D256MG cells worked out at 1.9 ng/mL and the IC50 ng/ml, cytotoxicity (50% inhibition of protein synthesis) on D270MG cells stood at 0.58 ng/mL.
